In US20030095988A1, “Method of inducing autovaccination against HIV infection using structured treatment interruptions” (priority 2000, published 2003):

Test system: IFN-gamma
Experiment: In vitro IFN-gamma production of patient PBMC with immunomodulators
Assay type: cell-based, human
Procedure: Activation of HIV-specific T-cells in vitro. PBMC were plated into flat-bottom 96-microtiter plates (Costar, N.Y.) at 1 million cells/well in 200 ul complete RPMI 1640 medium containing 10 ug antigen and 10 lU/well recombinant human IL-2 (rhIL-2). (Increasing the concentration of IL-2 (up to 500 U/ml) is OK, especially less antigen gives same results when IFN-gamma assayed.) Control PBMC are plated in medium containing 10 IU/well rhIL-2 without antigen. Cells are then cultured for 18 hours. Brefeldin A (Sigma, USA) is added at 2 ug/ml and the cells are incubated for another 3 hours and then collected for intracellular staining.
IFN-gamma assay. Cells were collected and aliquoted to 0.5 million cells for FACS assay. After washing twice with 1 ml PBS containing 1% BSA, cells were resuspended in 40 ul PBS/1% BSA and stained with CD8, CD4, CD3, and CD45RO antibodies for 30 minutes on ice. After washing, cells were fixed and permeabilized with 0.5 ml Fix/Per solution (containing 4% paraformaldehyde and 0.2% saponin in PBS, pH7.4) for 15 minutes on ice. […] After intracellular staining cells were washed twice with 1 ml 1×Per buffer, resuspended in 0.5 ml 1% paraformaldehyde PBS buffer and analyzed on FACS (Coulter). […]

IL-2: recombinant human IL-2, Th1 activating cytokine
CD3+ T cells responses (IFN responses inhibited by IL-10 (FIG. 15, lower panel)): doubled
HIV-specific Th1 responses (independently from the amount of IL-10): significantly increases
